Measured values from several laboratories, pooled; numbers as filed in NIAID ChemDB.

All rows: enzyme or target tests

ICn is the concentration giving n% inhibition. Blank or dashed fields: not listed here. a–b is a range or a potency band. Inhibition is in % at the dose shown (toxicity tests: loss of growth or viability). Conditions beyond the fields shown may differ between rows.

structure | target | endpoint | species | tested at | result
Cc1ccc(C(=O)N(C)c2cc(-c3ccc(F)cc3)sc2C(=O)O)cc1 | NS3 ATPase | IC50 | Hepatitis C virus |  | <5 µM
COc1nc(Nc2ccc3cn[nH]c3c2)nc(N2CCOCC2)n1 | Nonstructural protein 5B | inhibition | Hepatitis C virus | 10 µg/mL | 66%
CC[C@@H](C=O)NC(=O)[C@@H]1C[C@@H](NC(=O)c2ccc3ccccc3c2)CN1C(=O)[C@@H](NC(=O)[C@@H](NC(=O)c1cnccn1)C(C)C)C(C)C | NS3 protease | Ki | Hepatitis C virus |  | 1–100 µM
COc1nc(NCCc2ccccn2)nc(Nc2ccc3cn[nH]c3c2)n1 | DNA polymerase | inhibition | Hepatitis B virus | 1 µg/mL | 48%
Cc1c(S(=O)(=O)Nc2ccccc2-c2nc(C(=O)O)c(O)c(=O)[nH]2)sc2cc(Cl)ccc12 | HCV polymerase | IC50 | Hepatitis C virus |  | <100 µM
c1cc(OCc2ccncc2)cc(-c2cnc3c(-c4nn[nH]n4)cnn3c2C2CCCCC2)c1 | RNA-dependent RNA polymerase | IC50 | Hepatitis C virus |  | 1–10 µM
CC[C@H](NC(=O)[C@H](CC(C)C)NC(=O)[C@@H](NC(=O)[C@@H](NC(=O)c1cnccn1)C(C)C)C(C)C)C(=O)C(=O)O | NS3 protease | Ki | Hepatitis C virus |  | 1–100 µM
c1ccc(COc2ccc(-c3cnc4c(-c5nn[nH]n5)cnn4c3-c3ccccc3)cc2)cc1 | RNA-dependent RNA polymerase | IC50 | Hepatitis C virus |  | >10 µM
O=C(Cc1ccccn1)Nc1ccsc1-c1nc(C(=O)O)c(O)c(=O)[nH]1 | HCV polymerase | IC50 | Hepatitis C virus |  | <25 µM
CCc1ccc(-c2oc3ccc(F)cc3c2C(=O)NC)cc1 | Nonstructural protein 5B | IC50 | Hepatitis C virus |  | ≤0.5 µM
O=C(O)c1ccc2c(c1)nc(-c1ccc3ncc(-c4ccccc4)cc3c1)n2C1CCCCC1 | NS5B polymerase | inhibition | Hepatitis C virus | 100 µM | 96.87%
CNC(=O)c1c(-c2ccc(F)cc2)oc2cc(N3CCOCC3)c(OCc3cccc(C(=O)O)c3)cc12 | Nonstructural protein 5B | IC50 | Hepatitis C virus |  | ≤0.5 µM
CC[C@@H](C=O)NC(=O)[C@@H]1C[C@@H](OCc2ccccc2)CN1C(=O)[C@@H](NC(=O)[C@H](Cc1ccc([N+](=O)[O-])cc1)NC(=O)c1cnccn1)C(C)C | NS3 protease | Ki | Hepatitis C virus |  | 1–100 µM
COc1ccc(-c2ccc(Cl)cc2)c(-c2ccc3cc(-c4nc5cc(C(=O)O)ccc5n4Cc4ccccc4)ccc3n2)c1 | NS5B polymerase | inhibition | Hepatitis C virus | 100 µM | 101%
COc1nc(NCCc2c[nH]c3ccccc23)nc(Nc2ccc3cn[nH]c3c2)n1 | DNA polymerase | IC50 | Hepatitis B virus |  | >1 µg/mL
CNC(=O)c1c(-c2ccc(F)cc2)oc2cc(C3CCN(S(C)(=O)=O)C3)c(OC)cc12 | Nonstructural protein 5B | IC50 | Hepatitis C virus |  | ≤0.5 µM
COc1ccc(-c2cc(Cl)cc(Cl)c2)c(-c2ccc3cc(-c4nc5cc(C(=O)O)ccc5n4C4CCCCC4)ccc3n2)c1 | NS5B polymerase | inhibition | Hepatitis C virus | 33 µM | 102%
O=C(O)C[C@H](Cc1ccccc1)NC(=O)c1cnn2c(C3CCCCC3)c(-c3ccc(F)cc3F)cnc12 | RNA-dependent RNA polymerase | IC50 | Hepatitis C virus |  | <1 µM
CCOC(=O)C1CCN(c2nc(Nc3ccc4[nH]ncc4c3)nc(OC)n2)CC1 | DNA polymerase | inhibition | Hepatitis B virus | 0.1 µg/mL | 36%
CN(C(=O)Cc1ccccc1)c1cc(-c2ccccc2)sc1C(=O)O | NS3 ATPase | IC50 | Hepatitis C virus |  | <5 µM
COc1nc(Nc2ccc3[nH]ncc3c2)nc(N2CCOCC2)n1 | DNA polymerase | inhibition | Hepatitis B virus | 1 µg/mL | 56%
CC(C)C(=O)Nc1cnn2c(C3CCCCC3)c(-c3ccc(OCc4ccccc4)cc3)cnc12 | RNA-dependent RNA polymerase | IC50 | Hepatitis C virus |  | >10 µM
CC[C@@H](C=O)NC(=O)[C@H](CC(C)C)NC(=O)[C@@H](NC(=O)[C@@H](NC(=O)c1cccnc1)C(C)C)C(C)C | NS3 protease | Ki | Hepatitis C virus |  | 1–100 µM
O=C(Nc1nn[nH]n1)c1cnn2c(C3CCCCC3)c(-c3ccc(OCc4ccccc4)cc3)cnc12 | RNA-dependent RNA polymerase | IC50 | Hepatitis C virus |  | <1 µM
CNC(=O)c1ccc(-c2ccccc2)c(-c2ccc3cc(-c4nc5cc(C(=O)O)ccc5n4C4CCCCC4)ccc3n2)c1 | NS5B polymerase | inhibition | Hepatitis C virus | 33 µM | 101%
COc1nc(Nc2ccc3[nH]ncc3c2)nc(N2CCC(C(N)=O)CC2)n1 | DNA polymerase | inhibition | Hepatitis B virus | 0.1 µg/mL | 48%
NC(=O)[C@H](CO)NC(=O)c1ccc2cc(-c3nc4cc(C(=O)O)ccc4n3C3CCCCC3)ccc2n1 | NS5B polymerase | inhibition | Hepatitis C virus | 33 µM | 42.63%
Cc1ccccc1COc1cccc(-c2nc(C(=O)O)c(O)c(=O)[nH]2)c1 | HCV polymerase | IC50 | Hepatitis C virus |  | <100 µM
COc1ccc(-c2ccc(F)cc2)c(-c2ccc3cc(-c4nc5cc(C(=O)O)ccc5n4C4CCCCC4)ccc3n2)c1 | NS5B polymerase | inhibition | Hepatitis C virus | 100 µM | 99.79%
Cc1ccc(CN(C(=O)C2CC2)c2cc(-c3ccccc3)sc2C(=O)O)cc1 | NS3 ATPase | IC50 | Hepatitis C virus |  | 5–20 µM
COc1ccc(-c2cnc(OC)nc2OC)c(-c2ccc3cc(-c4nc5cc(C(=O)O)ccc5n4C4CCCCC4)ccc3n2)c1 | NS5B polymerase | inhibition | Hepatitis C virus | 33 µM | 99.62%
Cc1ccccc1S(=O)(=O)Nc1cc(-c2nccs2)sc1C(=O)O | NS3 ATPase | IC50 | Hepatitis C virus |  | <5 µM
O=C(Cc1c(-c2ccccc2)[nH]c2ccccc12)Nc1ccsc1-c1nc(C(=O)O)c(O)c(=O)[nH]1 | HCV polymerase | IC50 | Hepatitis C virus |  | <25 µM
CNC(=O)c1c(-c2ccc(F)cc2)oc2cc(N(Cc3ccc(OC)cc3)S(C)(=O)=O)c(OC(C)C)cc12 | Nonstructural protein 5B | IC50 | Hepatitis C virus |  | ≤0.5 µM
O=C(Nc1ccsc1-c1nc(C(=O)O)c(O)c(=O)[nH]1)OCc1cccc2cccc(Br)c12 | HCV polymerase | IC50 | Hepatitis C virus |  | <25 µM
O=C(NC(Cc1c[nH]c2ccc(O)cc12)C(=O)O)c1ccc2c(c1)nc(-c1ccc3ncc(-c4ccccc4)nc3c1)n2C1CCCCC1 | NS5B polymerase | inhibition | Hepatitis C virus | 100 µM | 99.25%
FC(F)(F)c1cccc(COc2ccc(-c3cnc4c(-c5nn[nH]n5)cnn4c3C3CCCCC3)cc2)c1 | RNA-dependent RNA polymerase | IC50 | Hepatitis C virus |  | 1–10 µM
O=C(CN1CC(c2ccccc2)CC1=O)Nc1ccsc1-c1nc(C(=O)O)c(O)c(=O)[nH]1 | HCV polymerase | IC50 | Hepatitis C virus |  | <25 µM
O=C(O)c1cc2nc(-c3ccccc3OCc3ccccc3)cc(-c3ccc(-c4ccccc4)cc3)n2n1 | RNA-dependent RNA polymerase | IC50 | Hepatitis C virus |  | 1–10 µM
O=C(O)c1nc(-c2ccccc2NS(=O)(=O)c2ccc(C(F)(F)F)cc2)[nH]c(=O)c1O | HCV polymerase | IC50 | Hepatitis C virus |  | <100 µM
O=C(O)c1sc(-c2ccccc2)cc1NC(=O)N1CCN(c2cccc(Cl)c2)CC1 | NS3 ATPase | IC50 | Hepatitis C virus |  | 5–20 µM
COc1nc(NCCCN2CCOCC2)nc(Nc2ccc3[nH]ncc3c2)n1 | DNA polymerase | inhibition | Hepatitis B virus | 0.1 µg/mL | 39%

The last 4 rows once more:

O=C(O)c1cc2nc(-c3ccccc3OCc3ccccc3)cc(-c3ccc(-c4ccccc4)cc3)n2n1 ; target: RNA-dependent RNA polymerase ; endpoint: IC50 ; species: Hepatitis C virus ; result: 1–10 µM
O=C(O)c1nc(-c2ccccc2NS(=O)(=O)c2ccc(C(F)(F)F)cc2)[nH]c(=O)c1O ; target: HCV polymerase ; endpoint: IC50 ; species: Hepatitis C virus ; result: <100 µM
O=C(O)c1sc(-c2ccccc2)cc1NC(=O)N1CCN(c2cccc(Cl)c2)CC1 ; target: NS3 ATPase ; endpoint: IC50 ; species: Hepatitis C virus ; result: 5–20 µM
COc1nc(NCCCN2CCOCC2)nc(Nc2ccc3[nH]ncc3c2)n1 ; target: DNA polymerase ; endpoint: inhibition ; species: Hepatitis B virus ; tested at: 0.1 µg/mL ; result: 39%